Patent US10087173B2, “Substituted aminothiazoles as inhibitors of cancers, including hepatocellular carcinoma, and as inhibitors of hepatitis virus replication” (BARUCH S. BLUMBERG INSTITUTE, priority 2011, dated 2018)

Experiments:
THLE2 cells = assay: MTT cell viability assay, THLE2 cells, 72 h; format: cell-based; details: Selective Index: ratio of CC50 in THLE2 over CC50 in Huh7
Description: Huh-7 cells and derived from hepatocellular carcinoma cells, and were donated by Dr. Xuanyong Lu, (Drexel University College of Medicine, Doylestown, Pa.). THLE-2 were purchased from American Type Culture Collection (Manassas, Va.). PH5CH were donated by Dr. Masayuki Noguchi (University of Tsukuba, Ibaraki, Japan). THLE-2 and PH5CH have been immortalized through stable transfection of the SV40 large T antigen in normal hepatocytes, and are thus cell lines that are representative of normal hepatocytes rather than HCC cells. […] All cell lines were cultured and maintained in 5% CO2 at 37° C. Huh-7 were maintained in the culture media DMEM/F12 (Dulbecco's Modified Eagle Medium) with 10% Fetal bovine serum (FBS), 100 μg/mL penicillin, 100 units/mL streptomycin, and 50 μg/mL normocin. THLE-2 and PH5CH were maintained in the culture media Brochial Epithelial Growth Media (BEGM) with 10% FBS, 100 μg/mL penicillin, 100 units/mL streptomycin, with the following additives form the prepackaged kit: Bovine pituitary extract (BPE), insulin, hydrocortisone, retinoic acid, transferrin, triiodothyronine, supplemented with 5 ng/ml human epidermal growth factor and 70 ng/ml phosphoethanolamine (Lonza Walkersville Inc., Walkersville, Md.).
(§1) Huh7 cells were plated on 96-well plates at 2.0×10^4 cells per well to permit grow in the presence of compounds of the disclosure. Compounds of the disclosure were prediluted and transferred to cell plates by automated liquid handling. Cells were incubated with compounds of the disclosure for 72 hours, after which culture growth and viability were assessed by addition of 50 μg/mL 3-(4,5-Dimethyl-2-thiazolyl)-2,5-diphenyl-2H-tetrazolium bromide (MTT) incubation for 4 hours at 37° C. Solubilization buffer (0.01M HCl, 10% SDS) was added followed by incubation at 37° C. overnight. Absorbance was measured at 570 nm (reference 630 nm). Compound of the disclosure were tested in Huh7, THLE-2 and PH5CH, over eight-point dilutions in half-log steps, testing 50.0, 16.6, 5.0, 1.66, 0.5, 0.166, 0.05, and 0.016 μM in 0.5% DMSO, with each concentration in duplicate wells. […] Each compound was tested from 2 to 7 times in separate assay trials.
(§2) Selectivity of toxicity in HCC-derived cells over normal liver-derived cells is important for the purposes of developing a therapy that specifically targets the cancer with low toxicity for […]. The Selective Index (SI) is the ratio of CC50 in normal cells (THLE2 or PH5CH) over the CC50 in the liver cancer derived cells; thus, the higher the number, the lower the potential toxicity at an efficacious dose.

PH5CH cells = assay: MTT cell viability assay, PH5CH cells, 72 h; format: cell-based; details: Selective Index: ratio of CC50 in PH5CH over CC50 in Huh7
Description: Huh-7 cells and derived from hepatocellular carcinoma cells, and were donated by Dr. Xuanyong Lu, (Drexel University College of Medicine, Doylestown, Pa.). THLE-2 were purchased from American Type Culture Collection (Manassas, Va.). PH5CH were donated by Dr. Masayuki Noguchi (University of Tsukuba, Ibaraki, Japan). THLE-2 and PH5CH have been immortalized through stable transfection of the SV40 large T antigen in normal hepatocytes, and are thus cell lines that are representative of normal hepatocytes rather than HCC cells. THLE2 have been confirmed to not form tumors in athymic mice. All cell lines were cultured and maintained in 5% CO2 at 37° C. Huh-7 were maintained in the culture media DMEM/F12 (Dulbecco's Modified Eagle Medium) with 10% Fetal bovine serum (FBS), 100 μg/mL penicillin, 100 units/mL streptomycin, and 50 μg/mL normocin. THLE-2 and PH5CH were maintained in the culture media Brochial Epithelial Growth Media (BEGM) with 10% FBS, 100 μg/mL penicillin, 100 units/mL streptomycin, with the following additives form the prepackaged kit: Bovine pituitary extract (BPE), insulin, hydrocortisone, retinoic acid, transferrin, triiodothyronine, supplemented with 5 ng/ml human epidermal growth factor and 70 ng/ml phosphoethanolamine (Lonza Walkersville Inc., Walkersville, Md.).
as §1, §2

## c1ccc(-c2csc(Nc3ncccn3)n2)nc1 [Entry 1]
THLE2 cells
  THLE2/Huh7 SI: 28.833
PH5CH cells
  PH5CH/Huh7 SI: 36.058

## c1ccc(-c2csc(Nc3ncccn3)n2)cc1 [Entry 3]
THLE2 cells
  THLE2/Huh7 SI: 1.423

## c1cnc(Nc2nc(-c3cccnc3)cs2)nc1 [Entry 4]
THLE2 cells
  THLE2/Huh7 SI: 1.374

## c1cnc(Nc2nc(-c3ccncc3)cs2)nc1 [Entry 5]
THLE2 cells
  THLE2/Huh7 SI: 3.407

## c1ccc(Nc2nc(-c3ccccc3)cs2)cc1 [Entry 7]
THLE2 cells
  THLE2/Huh7 SI: 2.050

## Cc1ccnc(-c2csc(Nc3ncccn3)n2)c1 [Entry 8]
THLE2 cells
  THLE2/Huh7 SI: 24.905
PH5CH cells
  PH5CH/Huh7 SI: 60.358

## Brc1sc(Nc2ncccn2)nc1-c1ccccn1 [Entry 9]
THLE2 cells
  THLE2/Huh7 SI: 11.816

## Brc1cccc(-c2csc(Nc3ncccn3)n2)n1 [Entry 10]
THLE2 cells
  THLE2/Huh7 SI: 1.247

## c1ccc(-c2csc(Nc3cnccn3)n2)nc1 [Entry 11]
THLE2 cells
  THLE2/Huh7 SI: 0.108

## c1ccc(-c2csc(Nc3ccncn3)n2)nc1 [Entry 12]
THLE2 cells
  THLE2/Huh7 SI: 1.464

## Clc1cnc(Nc2nc(-c3ccccn3)cs2)nc1 [Entry 13]
THLE2 cells
  THLE2/Huh7 SI: 1.428

## Brc1cnc(Nc2nc(-c3ccccn3)cs2)nc1 [Entry 14]
THLE2 cells
  THLE2/Huh7 SI: 1.290

## CN(c1ncccn1)c1nc(-c2ccccn2)cs1 [Entry 15]
THLE2 cells
  THLE2/Huh7 SI: 9.238
PH5CH cells
  PH5CH/Huh7 SI: 9.353

## CC(C)N(c1ncccn1)c1nc(-c2ccccn2)cs1 [Entry 16]
THLE2 cells
  THLE2/Huh7 SI: 1.945
PH5CH cells
  PH5CH/Huh7 SI: 1.945

## OCCN(c1ncccn1)c1nc(-c2ccccn2)cs1 [Entry 17]
THLE2 cells
  THLE2/Huh7 SI: 1.022
PH5CH cells
  PH5CH/Huh7 SI: 1.022

## c1ccc(CN(c2ncccn2)c2nc(-c3ccccn3)cs2)cc1 [Entry 18]
THLE2 cells
  THLE2/Huh7 SI: 0.995
PH5CH cells
  PH5CH/Huh7 SI: 0.937

## CCOC(=O)c1sc(Nc2ncccn2)nc1-c1ccccn1 [Entry 19]
THLE2 cells
  THLE2/Huh7 SI: 106.972
PH5CH cells
  PH5CH/Huh7 SI: 121.642

## OCc1sc(Nc2ncccn2)nc1-c1ccccn1 [Entry 20]
THLE2 cells
  THLE2/Huh7 SI: 2.748
PH5CH cells
  PH5CH/Huh7 SI: 4.137

## CCc1sc(Nc2ncccn2)nc1-c1ccccn1 [Entry 21]
THLE2 cells
  THLE2/Huh7 SI: 1.602
PH5CH cells
  PH5CH/Huh7 SI: 2.859

## Cc1sc(Nc2ncccn2)nc1-c1ccccn1 [Entry 22]
THLE2 cells
  THLE2/Huh7 SI: 7.232
PH5CH cells
  PH5CH/Huh7 SI: 7.086

## Cc1ccc2nc(Nc3nc(-c4ccccn4)cs3)sc2c1 [Entry 23]
THLE2 cells
  THLE2/Huh7 SI: 0.805
PH5CH cells
  PH5CH/Huh7 SI: 0.807

## CC(C)c1sc(Nc2ncccn2)nc1-c1ccccn1 [Entry 24]
THLE2 cells
  THLE2/Huh7 SI: 4.434
PH5CH cells
  PH5CH/Huh7 SI: 4.434

## CCCCCc1sc(Nc2ncccn2)nc1-c1ccccn1 [Entry 25]
THLE2 cells
  THLE2/Huh7 SI: 1.932
PH5CH cells
  PH5CH/Huh7 SI: 1.932

## Cc1cnc(-c2csc(Nc3ncccn3)n2)c(C)c1 [Entry 27]
THLE2 cells
  THLE2/Huh7 SI: 0.816
PH5CH cells
  PH5CH/Huh7 SI: 17.397

## Oc1cccc(-c2csc(Nc3ncccn3)n2)n1 [Entry 28]
THLE2 cells
  THLE2/Huh7 SI: 1.083
PH5CH cells
  PH5CH/Huh7 SI: 1.083

## N#Cc1sc(Nc2ncccn2)nc1-c1ccccn1 [Entry 29]
THLE2 cells
  THLE2/Huh7 SI: 3125
PH5CH cells
  PH5CH/Huh7 SI: 3125

## Cc1ccnc(Nc2nc(-c3ccccn3)cs2)n1 [Entry 30]
THLE2 cells
  THLE2/Huh7 SI: 1.000
PH5CH cells
  PH5CH/Huh7 SI: 1.000

## CCOC(=O)c1sc(Nc2nccc(C)n2)nc1-c1ccccn1 [Entry 31]
THLE2 cells
  THLE2/Huh7 SI: 3125
PH5CH cells
  PH5CH/Huh7 SI: 3125

## c1cnc(Nc2nc(-c3ccc4ccccc4n3)cs2)nc1 [Entry 32]
THLE2 cells
  THLE2/Huh7 SI: 0.160
PH5CH cells
  PH5CH/Huh7 SI: 1.000

## c1ccc(-c2nc(Nc3ncccn3)sc2C2CCCCC2)nc1 [Entry 33]
THLE2 cells
  THLE2/Huh7 SI: 0.071
PH5CH cells
  PH5CH/Huh7 SI: 1.000

## FC(F)(F)c1ccnc(Nc2nc(-c3ccccn3)cs2)n1 [Entry 34]
THLE2 cells
  THLE2/Huh7 SI: 1.420
PH5CH cells
  PH5CH/Huh7 SI: 1.878

## CCOC(=O)c1sc(Nc2ncccn2)nc1-c1cc(C)ccn1 [Entry 35]
THLE2 cells
  THLE2/Huh7 SI: 7.888
PH5CH cells
  PH5CH/Huh7 SI: 8.317

## CCOC(=O)c1sc(Nc2ncccn2)nc1-c1cccc(C)n1 [Entry 36]
THLE2 cells
  THLE2/Huh7 SI: 1.000
PH5CH cells
  PH5CH/Huh7 SI: 1.000

## Cl.O=C(NCc1ccccc1)c1sc(Nc2ncccn2)nc1-c1ccccn1 [Entry 37]
THLE2 cells
  THLE2/Huh7 SI: 2.818
PH5CH cells
  PH5CH/Huh7 SI: 1.775

## COC(=O)c1sc(Nc2ncccn2)nc1-c1ccccn1 [Entry 38]
THLE2 cells
  THLE2/Huh7 SI: 23.591
PH5CH cells
  PH5CH/Huh7 SI: 30.978

## CNC(=O)c1sc(Nc2ncccn2)nc1-c1ccccn1.Cl [Entry 39]
THLE2 cells
  THLE2/Huh7 SI: 0.792
PH5CH cells
  PH5CH/Huh7 SI: 0.222

## CN(Cc1cnc2nc(N)nc(N)c2n1)c1ccc(C(=O)NC(CCC(=O)NCCOCCOCCOCCOCCOCCNC(=O)c2sc(Nc3ncccn3)nc2-c2ccccn2)C(=O)OC(C)(C)C)cc1 (stereo not drawn) [Entry 40]
THLE2 cells
  THLE2/Huh7 SI: 1.435
PH5CH cells
  PH5CH/Huh7 SI: 1.435

## Cl.NC(=O)c1sc(Nc2ncccn2)nc1-c1ccccn1 [Entry 41]
THLE2 cells
  THLE2/Huh7 SI: 0.532
PH5CH cells
  PH5CH/Huh7 SI: 1.000

## CC(=O)OCc1sc(Nc2ncccn2)nc1-c1ccccn1 [Entry 42]
THLE2 cells
  THLE2/Huh7 SI: 1.274
PH5CH cells
  PH5CH/Huh7 SI: 1.274

## CCCC(=O)OCc1sc(Nc2ncccn2)nc1-c1ccccn1 [Entry 43]
THLE2 cells
  THLE2/Huh7 SI: 4.544
PH5CH cells
  PH5CH/Huh7 SI: 4.544

## CC(C)(C)OC(=O)c1sc(N(c2ncccn2)C(C)(C)C)nc1-c1ccccn1 [Entry 44]
THLE2 cells
  THLE2/Huh7 SI: 2.442
PH5CH cells
  PH5CH/Huh7 SI: 2.442

## Oc1cccc(Nc2nc(-c3ccccc3)cs2)c1 [Entry 45]
THLE2 cells
  THLE2/Huh7 SI: 6.250

## N#Cc1sc(Nc2ncccn2)nc1-c1ccccn1 [Entry 47]
THLE2 cells
  THLE2/Huh7 SI: 3125.00
PH5CH cells
  PH5CH/Huh7 SI: 3125.00
